A mixed list of measured activities; the numbers were collected in NIAID ChemDB.

Common to all: tests in culture; species: Mycobacterium avium complex

Blank or dashed fields: not listed here. Neighbouring rows are from separate reports. A number after MIC or MFC names an inhibition level or a share of isolates. ECn is the concentration giving n% inhibition of infection, replication or growth. a–b is a range or a potency band.

smiles	read by	strain or isolate	read-out	result
CC[C@H]1OC(=O)[C@H](C)[C@@H](O[C@H]2C[C@@](C)(OC)[C@@H](OC(C)=O)[C@H](C)O2)[C@H](C)[C@@H](O[C@@H]2O[C@H](C)C[C@H](N(C)C)[C@H]2O)C(C)(O)C[C@@H](C)/C(=N\OCCCC2CCCCC2)[C@H](C)[C@@H](O)[C@]1(C)O		27 strains	MIC90	1.56 µg/mL
CCS/C(N)=N\N=C\c1cccnc1		ATCC 19421	MIC	>100 µg/mL
CCCCCCCCO[C@@H]1O[C@H]([C@@H](CO)O[C@H]2O[C@H](CO)[C@@H](O)[C@@H]2O)[C@H](O)[C@H]1O		NJ168	MIC	>128 µg/mL
OC[C@H]1O[C@@H](CSc2ccccc2)[C@@H](O)[C@@H]1O		3 strains	MIC	>64 µg/mL
O[C@H](c1cc2ccc(C(F)(F)F)cc2c2cc(C(F)(F)F)ccc12)[C@H]1CCCCN1		101 (clarithromycin-resistant)	MIC	4 µg/mL
CO/C(=N\N=C\c1cc(OC)ccc1OC)c1ccncc1		12592 PI	MIC	>20 µg/mL
CCCCCCCCCCCCC(=O)O[C@H]1[C@H](C)[C@@H](O[C@@H]2O[C@H](C)C[C@H](N(C)C)[C@H]2O)C(C)(O)C[C@@H](C)/C(=N\OCCCOc2ccccc2)[C@H](C)[C@@H](O)[C@](C)(O)[C@@H](CC)OC(=O)[C@@H]1C		20039 (clarithromycin-susceptible)	MIC	>50 µg/mL
CCCCCCCCO[C@H]1O[C@H](CO[C@H]2O[C@H](COC(=O)c3ccccc3)[C@@H](OC(=O)c3ccccc3)[C@@H]2OC(=O)c2ccccc2)[C@@H](OCc2ccccc2)[C@@H]1OCc1ccccc1		NJ211	MIC	>128 µg/mL
Cc1ccn2c(C(=O)NCc3ccc4c(c3)CCO4)c(C)nc2c1	MTT	Clinical isolate KAL	MIC	4 µg/mL
C/C(=N\NC(=O)c1ccncc1)c1ccccc1F		12592 PI	MIC	>5 µg/mL
CC[C@H]1OC(=O)[C@H](C)[C@@H](OC2C[C@@](C)(OC)[C@@H](O)[C@H](C)O2)[C@H](C)[C@@H](O[C@@H]2O[C@H](C)C[C@H](N(C)C)[C@H]2O)C(C)(OC)C[C@@H](C)/C(=N\OCCCOc2ccccc2)[C@H](C)[C@@H](O)[C@]1(C)O		20039 (clarithromycin-susceptible)	MIC	1.56 µg/mL
CC[C@H]1OC(=O)[C@H](C)[C@@H](O[C@H]2C[C@@](C)(OC)[C@@H](O)[C@H](C)O2)[C@H](C)[C@@H](O[C@@H]2O[C@H](C)C[C@H](N(C)C)[C@H]2O)[C@](C)(OC)C[C@@H](C)C(=O)[C@H](C)[C@@H](O)[C@]1(C)O		ATCC 15769	MIC	2 µg/mL
CCCCCCO/N=C1\[C@H](C)CC(C)(O)[C@H](O[C@@H]2O[C@H](C)C[C@H](N(C)C)[C@H]2O)[C@@H](C)[C@H](OC2C[C@@](C)(OC)[C@@H](O)[C@H](C)O2)[C@@H](C)C(=O)O[C@H](CC)[C@@](C)(O)[C@H](O)[C@H]1C		20092	MIC	25 µg/mL
CC1COc2c(N3CCN(C)CC3)c(F)cc3c(=O)c(C(=O)O)cn1c23		18 strains	MIC90	50 µg/mL
C=Cn1cc(C(=O)O)c(=O)c2cc([N+](=O)[O-])c(NCCF)cc21			MIC50	>200 µM
COc1cc(NC(C)CCCN)c2nccc(COc3cccc(C(F)(F)F)c3)c2c1Cc1cccc(C(F)(F)F)c1		5 clinical isolates	MIC	>16 µg/mL
N[C@@H]1CN(c2c(F)cc3c(=O)c(C(=O)O)cn([C@@H]4C[C@@H]4F)c3c2Cl)CC12CC2		24 strains	MIC90	8 µg/mL
N[C@@H]1CONC1=O	agar	14 strains	EC50	<60 µg/mL
CC[C@H]1OC(=O)[C@H](C)[C@@H](OC2C[C@@](C)(OC)[C@@H](O)[C@H](C)O2)[C@H](C)[C@@H](O[C@@H]2O[C@H](C)C[C@H](N(C)C)[C@H]2O)C(C)(O)C[C@@H](C)/C(=N\OCCCOc2ccccc2)[C@H](C)[C@@H](O)[C@]1(C)O		20096	MIC	3.13 µg/mL
CCc1cc(C(N)=S)ccn1	broth dilution	56 strains	EC50	<5 µg/mL
CC[C@H]1OC(=O)[C@H](C)[C@@H](O[C@H]2C[C@@](C)(OC)[C@@H](OC(C)=O)[C@H](C)O2)[C@H](C)[C@@H](O[C@@H]2O[C@H](C)C[C@H](N(C)C)[C@H]2O)C(C)(O)C[C@@H](C)/C(=N\OCCCOc2ccccc2)[C@H](C)[C@@H](O)[C@]1(C)O		20092 (clarithromycin-resistant)	MIC	0.78 µg/mL
C/C(=N\NC(=O)c1ccncc1)c1ccc(Cl)c(Cl)c1		12592 PI	MIC	>10 µg/mL
CCCCCCCCCCCCO/N=C1\[C@H](C)CC(C)(O)[C@H](O[C@@H]2O[C@H](C)C[C@H](N(C)C)[C@H]2O)[C@@H](C)[C@H](OC2C[C@@](C)(OC)[C@@H](O)[C@H](C)O2)[C@@H](C)C(=O)O[C@H](CC)[C@@](C)(O)[C@H](O)[C@H]1C		20092	MIC	25 µg/mL
O=C(O)c1cn(C2CCCC2)c2cc(NC3CCCC3)c([N+](=O)[O-])cc2c1=O			MIC50	81 µM
C/C(=N\NC(=O)c1ccncc1)c1ccc(Cl)cc1Cl		12592 PI	MIC	>20 µg/mL
CCCCCCC(C)c1ccc2c(c1)C(=O)c1nc3ccncc3c(=O)n1-2		19075	MBC	0.13 µg/mL
O[C@@H](c1cc2ccc(C(F)(F)F)cc2c2cc(C(F)(F)F)ccc12)[C@@H]1CCCCN1		101 (clarithromycin-resistant)	MIC	2 µg/mL
CCCCCCCCO[C@H]1O[C@H](CO[C@H]2O[C@H](COC(=O)c3ccccc3)[C@@H](OC(=O)c3ccccc3)[C@@H]2OC(=O)c2ccccc2)[C@@H](O)[C@@H]1O		NJ211	MIC	>128 µg/mL
C[C@@H]1CN(c2c(F)c(N)c3c(=O)c(C(=O)O)cn(C4CC4)c3c2F)C[C@H](C)N1		20 strains	MIC50	0.25 µg/mL
CCCCN(CCCC)C[C@H](O)c1cc2c(Cl)cc(Cl)cc2c2cc(C(F)(F)F)ccc12		5 clinical isolates	MIC	4–8 µg/mL
O=C(O)c1cn(C2CCC2)c2cc(NC3CCC3)c([N+](=O)[O-])cc2c1=O			MIC90	>200 µM
CO/C(=N\N=C\c1cccc(C(C)(F)F)c1)c1ccncc1		12592 PI	MIC	>5 µg/mL
CCCCS/C(N)=N\N=C\c1ccnnc1		ATCC 19421	MIC	12.5 µg/mL
Cc1ccc2nc(C)c(C(=O)NCc3ccc(C(F)(F)F)cc3)n2c1	MTT	Clinical isolate KAL	MIC	0.06 µg/mL
CC[C@H]1OC(=O)[C@H](C)[C@@H](O[C@H]2C[C@@](C)(OC)[C@@H](O)[C@H](C)O2)[C@H](C)[C@@H](O[C@@H]2O[C@H](C)C[C@H](N(C)C)[C@H]2O)[C@](C)(O)C[C@@H](C)CN(C)[C@H](C)[C@@H](O)[C@]1(C)O		E	MIC	8 µg/mL
CC[C@H]1OC(=O)[C@H](C)[C@@H](O[C@H]2C[C@@](C)(OC)[C@@H](O)[C@H](C)O2)[C@H](C)[C@@H](O[C@@H]2O[C@H](C)C[C@H](N(C)C)[C@H]2O)[C@](C)(O)C[C@@H](C)CN(C)[C@H](C)[C@@H](O)[C@]1(C)O		MO-1	MIC	32 µg/mL
CC[C@H]1OC(=O)[C@H](C)[C@@H](OC2C[C@@](C)(OC)[C@@H](O)[C@H](C)O2)[C@H](C)[C@@H](O[C@@H]2O[C@H](C)C[C@H](N(C)C)[C@H]2O)C(C)(O)C[C@@H](C)/C(=N\OCCOc2ccccc2)[C@H](C)[C@@H](O)[C@]1(C)O		20039	MIC	1.56 µg/mL
CC1COc2c(N3CCN(C)CC3)c(F)cc3c(=O)c(C(=O)O)cn1c23		18 strains	MIC50	12.5 µg/mL
CC[C@H]1OC(=O)[C@H](C)[C@@H](OC2C[C@@](C)(OC)[C@@H](O)[C@H](C)O2)[C@H](C)[C@@H](O[C@@H]2O[C@H](C)C[C@H](N(C)C)[C@H]2O)C(C)(O)C[C@@H](C)/C(=N\OCCN(C)c2ccccc2)[C@H](C)[C@@H](O)[C@]1(C)O		20092	MIC	25 µg/mL
CC[C@H]1OC(=O)[C@H](C)[C@@H](O[C@H]2C[C@@](C)(OC)[C@@H](O)[C@H](C)O2)[C@H](C)[C@@H](O[C@@H]2O[C@H](C)C[C@H](N(C)C)[C@H]2O)[C@](C)(OC)C[C@@H](C)C(=O)[C@H](C)[C@@H](O)[C@]1(C)O			MIC	4 µg/mL
CCCO/N=C1\[C@H](C)CC(C)(O)[C@H](O[C@@H]2O[C@H](C)C[C@H](N(C)C)[C@H]2O)[C@@H](C)[C@H](OC2C[C@@](C)(OC)[C@@H](O)[C@H](C)O2)[C@@H](C)C(=O)O[C@H](CC)[C@@](C)(O)[C@H](O)[C@H]1C		20039	MIC	1.56 µg/mL
OC[C@H]1N[C@@H](CSc2ccccc2)[C@@H](O)[C@@H]1O		3 strains	MIC	4 µg/mL
CO/C(=N\N=C\c1ccc(F)cc1)c1ccncc1		12592 PI	MIC	>5 µg/mL
CC[C@H]1OC(=O)[C@H](C)[C@@H](OC2C[C@@](C)(OC)[C@@H](O)[C@H](C)O2)[C@H](C)[C@@H](O[C@@H]2O[C@H](C)C[C@H](N(C)C)[C@H]2O)C(C)(O)C[C@@H](C)/C(=N\OCC2CCCCC2)[C@H](C)[C@@H](O)[C@]1(C)O		20092	MIC	>50 µg/mL
O=C(O)c1cn(N2CCOCC2)c2cc(NC3CC3)c([N+](=O)[O-])cc2c1=O			MIC50	2.3 µM
CCCCO/N=C1\[C@H](C)CC(C)(O)[C@H](O[C@@H]2O[C@H](C)C[C@H](N(C)C)[C@H]2O)[C@@H](C)[C@H](O[C@H]2C[C@@](C)(OC)[C@@H](OC(C)=O)[C@H](C)O2)[C@@H](C)C(=O)O[C@H](CC)[C@@](C)(O)[C@H](O)[C@H]1C		20096 (clarithromycin-resistant)	MIC	>50 µg/mL
Cc1cc(N=NC(N)=S)c2ccccc2c1O		5 clinical isolates	MIC	>16 µg/mL
O=C(O)c1cn(-c2ccc(F)cc2F)c2cc(Nc3ccc(F)cc3F)c([N+](=O)[O-])cc2c1=O			MIC50	>200 µM
CN1CCN(c2c(F)cc3c(=O)c(C(=O)O)cn(CCF)c3c2F)CC1			MIC50	12.5 µg/mL
CC(=O)NC[C@H]1CN(c2ccc(-c3ccncc3)cc2)C(=O)O1		5 isolates	MIC	10–16 µg/mL

The last 5 rows once more:

smiles | read by | strain or isolate | read-out | result
CCCCO/N=C1\[C@H](C)CC(C)(O)[C@H](O[C@@H]2O[C@H](C)C[C@H](N(C)C)[C@H]2O)[C@@H](C)[C@H](O[C@H]2C[C@@](C)(OC)[C@@H](OC(C)=O)[C@H](C)O2)[C@@H](C)C(=O)O[C@H](CC)[C@@](C)(O)[C@H](O)[C@H]1C |  | 20096 (clarithromycin-resistant) | MIC | >50 µg/mL
Cc1cc(N=NC(N)=S)c2ccccc2c1O |  | 5 clinical isolates | MIC | >16 µg/mL
O=C(O)c1cn(-c2ccc(F)cc2F)c2cc(Nc3ccc(F)cc3F)c([N+](=O)[O-])cc2c1=O |  |  | MIC50 | >200 µM
CN1CCN(c2c(F)cc3c(=O)c(C(=O)O)cn(CCF)c3c2F)CC1 |  |  | MIC50 | 12.5 µg/mL
CC(=O)NC[C@H]1CN(c2ccc(-c3ccncc3)cc2)C(=O)O1 |  | 5 isolates | MIC | 10–16 µg/mL